Tested on: TABX2S cells (over-expressing Bcl-xL)
Conditions: estimated from the dose-response curve
Excerpt: Briefly, a DNA fragment encoding the full-length mouse BCl-xL cDNA was isolated from the plasmid PBS.BCL-xL (Tzung et al., Am. J. Path. 150:1985-1995, 1997, incorporated herein by reference in its entirety) by digestion with the restriction endonuclease EcoRI. This EcoRI fragment was cloned into the EcoRI site of the mammalian expression vector pSFFV (Fuhlbrigge et al., Proc. Nat. Acad. Sci. USA 85:5649-5653, 1988) in both sense and antisense orientations, to form expression plasmids pSFFV.Bcl-xL(sense) or pSFFV.Bcl-xL(antisense), respectively. […]
Selected transfectants were then tested for whole cell sensitivity to several apoptotic agents. […] Cell viability was determined by trypan blue dye exclusion. The percentage of viable cells was calculated by the number of viable cells (treated with a particular apoptogenic agent) divided by the number in the control group (untreated).
TABX2S cells and TABX1A cells were also examined for the effects of various mitochondrial inhibitors. […] At various time points after drug treatment, cells were trypsinized, and cell viability was determined by trypan blue dye exclusion. The number of viable cells were counted and normalized to control group (i.e., % control=number of viable cells (treated group)/number of viable cells (control group)×100).

antimycin A
LD50: 1.2 µM

Source: patent US20050239873A1, “2 Methoxy antimycin a derivatives and methods of use” (priority 1999, published 2005)
